Results of unrelated studies side by side (data: NIAID ChemDB).

Shared fields: tests on isolated targets; organism: HIV-1; protein: Reverse transcriptase

Rows are shuffled and stem from different studies. Inhibition is in % at the dose shown (toxicity tests: loss of growth or viability). Blank or dashed fields: not listed here. Fold resistance has wild type as its base. ICn is the concentration giving n% inhibition. a–b is a range or a potency band.

compound,endpoint,strain or isolate,mutations,tested at,read by,value
C=Cc1cc(N(CCC)CCC)nc(S(C)(=O)=O)n1,Ki,,,,nucleotide incorporation / radiometric,>400 µM
Cc1ccc(-n2nnnc2SCC(=O)Nc2ccc(-c3ccc(CC(N)=O)cc3)cc2[N+](=O)[O-])c(Cl)c1,IC50,WT,,,PicoGreen / fluorescence,<1 µM
Cc1c(Cc2ccccc2)nc(NCCCCN)[nH]c1=O,Ki,,RT-L100I,,,>1000 µM
Cc1ccc2c(c1)N(C(C)C)C(=O)c1ccnnc1O2,inhibition,,,33 µM,ELISA,44%
CCOCn1c(Sc2ccccc2)c(CC)c(=O)[nH]c1=O,fold resistance,,RT-Y181C,,nucleotide incorporation,14
CC(C)(C#Cc1ccc(NC(=O)CSc2nnnn2-c2cc(C(F)(F)F)cc(C3CC3)c2Cl)c(Cl)c1F)NC(=O)CN1CCNCC1,IC50,,RT-K103 Y181C,,PicoGreen / fluorescence,<1 µM
Cc1c(Cc2ccccc2)nc(SCCCCO)[nH]c1=O,Ki,,RT-L100I,,,73 µM
CC(C)c1ccc(-n2nnnc2SCC(=O)Nc2ccc(-c3ccc(OCCN4CCCC4)cc3)cc2Cl)c(Br)c1,IC50,WT,,,PicoGreen / fluorescence,<1 µM
O=C1NC(c2c[nH]c3ccc(O)cc23)=C/C1=C1\C(=O)NC2C=CC=CC12,inhibition,,,1000 µM,RT activity / ELISA,97.14%
Cc1c(NC(=O)CSc2nnnn2-c2ccc(C3CC3)cc2Cl)ccc(C#CC(C)(C)NC(=O)c2cc[n+]([O-])cc2)c1F,IC50,WT,,,PicoGreen / fluorescence,<1 µM
CCN1c2ncc(CCOc3ccc(CC(=O)O)c4c3CCCC4)cc2C(=O)N(C)c2cccnc21,fold resistance,,RT-Y188L,,nucleotide incorporation / radiometric,>10
CNC(=O)NS(=O)(=O)c1ccc(NC(=O)CSc2nnnn2-c2ccc(C3CC3)cc2Cl)c(Cl)c1,IC50,,RT-K103 Y181C,,PicoGreen / fluorescence,<1 µM
CCN1c2ncc(CCOc3ccc(-c4ccc(O)c(C(=O)O)c4)cc3C)cc2C(=O)N(C)c2cccnc21,IC50,IIIB,RT-K103N Y181C,,nucleotide incorporation / radiometric,0.05–0.1 µM
c1ccc2c(c1)CCN(c1nn3c(-c4cscn4)nnc3c3ccccc13)C2,IC90,IIIB,,,RT activity / fluorescence,3.26 µM
C=Cc1cc(N(C)C)nc(SCc2ccc(OC)cc2)n1,Ki,,,,nucleotide incorporation / radiometric,325 µM
Cc1ccc2c(c1)N(CCCCl)C(=O)c1ccnnc1O2,inhibition,,,330 µM,ELISA,52%
COC(=O)c1ccc2c(c1)CN(c1nn3c(C)nnc3c3ccccc13)CC2,IC90,IIIB,,,RT activity / fluorescence,8.03 µM
Cc1ccc(-c2c(SCC(=O)Nc3ccc(-c4ccc(CC(=O)O)cc4)cc3Cl)cnn2C)c(Cl)c1,IC50,,RT-K103 Y181C,,PicoGreen / fluorescence,<1 µM
COc1cc2c(cc1N)CN(c1nn3c(C4CC4)nnc3c3ccccc13)CC2,IC90,KER2008,,,RT activity / fluorescence,8.88 µM
O=C(CSc1nnnn1-c1ccc(C2CC2)cc1Cl)Nc1ccc(-c2ccc(OCCN3CCCCC3)c(Cl)c2)cc1Cl,IC50,WT,,,PicoGreen / fluorescence,<1 µM
CCN1c2ncc(CCOc3ccc(/C=C(\C)C(=O)O)c4ccccc34)cc2C(=O)N(C)c2ccc(Cl)nc21,fold resistance,,RT-V106A,,nucleotide incorporation / radiometric,1–10
CCc1cc(NCc2nc3c(C)ccc(C)c3o2)c(=O)[nH]c1C,fold resistance,,RT-Y188C,,nucleotide incorporation,5.8
CCCN1C(=O)c2ccnnc2Oc2ccc(C)cc21,inhibition,,,330 µM,ELISA,83%
c1cnc2c(c1)CN(c1nn3c(C4CC4)nnc3c3ccccc13)CC2,IC50,98US_MSC5016,,,RT activity / fluorescence,2.64 µM
CCN1c2ncc(CCOc3ccc(C(=O)O)c4c3CCCC4)cc2C(=O)N(C)c2ccc(C)nc21,fold resistance,,RT-V106A,,nucleotide incorporation / radiometric,>10
CC(C)(C#Cc1ccc(NC(=O)CSc2nnnn2-c2cc(C(C)(C)C)ccc2Cl)c(Cl)c1)NC(=O)CN1CCC(C(=O)O)CC1,IC50,WT,,,PicoGreen / fluorescence,<1 µM
CCCN1c2ccccc2N(C)C(=O)c2ccnnc21,inhibition,,,330 µM,,85%
CCN1c2ncc(CCOc3ccc(C(=O)O)c4c3CCC4)cc2C(=O)N(C)c2cccnc21,fold resistance,,RT-V106A,,nucleotide incorporation / radiometric,1–10
CC(C)(C)c1ccc(-n2nnnc2SCC(=O)Nc2ccc(NC(=O)Cc3ccccc3)cc2Cl)c(Cl)c1,IC50,WT,,,PicoGreen / fluorescence,<1 µM
CN1C(=O)c2ccnnc2N(C2CC2)c2ccccc21,inhibition,,,330 µM,,72%
CCN1c2ncc(CCOc3ccc(-c4ccc(N)nc4C)cc3C)cc2C(=O)N(C)c2cccnc21,IC50,IIIB,,,nucleotide incorporation / radiometric,<0.05 µM
CCN1c2ncc(CCOc3ccc(C4CC4C(=O)O)c4ccccc34)cc2C(=O)N(C)c2ccc(F)nc21,fold resistance,,RT-V106A,,nucleotide incorporation / radiometric,1–10
C#CC(O)/C=C/C/C=C/C=C/C=C/CC#CC(O)C#CC/C=C/C=C/C=C/CC(O)C#C,IC95,,,,radiometric,9.5 µM
CCN1C(=O)c2ccnnc2N(CC)c2ccccc21,inhibition,,,330 µM,,91%
CC(C)(C)c1ccc(-n2nnnc2SCC(=O)Nc2ccc(-c3ccc(C(=O)O)s3)cc2Cl)c(Cl)c1,IC50,,RT-K103 Y181C,,PicoGreen / fluorescence,<1 µM
CCN1c2ncc(CCOc3ccc(-c4ccccn4)cc3C)cc2C(=O)N(C)c2cccnc21,IC50,IIIB,RT-K103N Y181C,,nucleotide incorporation / radiometric,<0.05 µM
CC(C)(C#Cc1ccc(NC(=O)CSc2nnnn2-c2ccc(C3CC3)cc2Cl)c(Cl)c1F)OCCN1CCNCC1,IC50,,RT-K103 Y181C,,PicoGreen / fluorescence,<1 µM
COc1cc2c(cc1OC)CN(c1nn3c(C(F)F)nnc3c3ccccc13)CC2,IC90,IIIB,,,RT activity / fluorescence,2.77 µM
CCN1c2ncc(CCOc3ccc(-c4ccc(C(=O)O)cc4)cc3)cc2C(=O)N(C)c2cccnc21,IC50,IIIB,,,nucleotide incorporation / radiometric,<0.05 µM
CC(C)(C)c1ccc(-n2nnnc2SCC(=O)Nc2ccc(-c3ccc(OCCN4CCCC4)cc3)cc2Cl)c(Cl)c1,IC50,WT,,,PicoGreen / fluorescence,<1 µM
Nc1ccn([C@H]2CC[C@@H](COP(=O)(O)OP(=O)(O)OP(=O)(O)O)O2)c(=O)n1,Ki,IIIB,RT-1(IIIB),,nucleotide incorporation / radiometric,3.3 µM
CC(C)(C#Cc1ccc(NC(=O)CSc2nnnn2-c2ccc(C3CC3)cc2Cl)c(Cl)c1F)OCCO[n+]1cccc([O-])c1,IC50,WT,,,PicoGreen / fluorescence,<1 µM
COc1ccc(OC)c(C/C=C(\C)CC/C=C(\C)CC/C=C(\C)CC/C=C(\C)CC/C=C(\C)CCC=C(C)C)c1,IC90,,,,nucleotide incorporation,38.5 µM
CCC(N)(C#Cc1ccc(NC(=O)CSc2nnnn2-c2ccc(C3CC3)cc2Cl)c(Cl)c1)CC,IC50,,RT-K103 Y181C,,PicoGreen / fluorescence,<1 µM
CCN1c2ncc(CCOc3ccc(-c4ccc(C(O)C(=O)O)cc4)cc3C)cc2C(=O)N(C)c2cccnc21,IC50,IIIB,,,nucleotide incorporation / radiometric,<0.05 µM
CCCN1c2ccc(C)cc2N(CC)C(=O)c2ccnnc21,inhibition,,,330 µM,,57%
CCN1c2ncc(CCOc3ccc(NS(C)(=O)=O)cc3C)cc2C(=O)N(C)c2cccnc21,IC50,IIIB,,,nucleotide incorporation / radiometric,<0.05 µM
CCCN1C(=O)c2cc(Cl)nnc2N(CC)c2ccccc21,inhibition,,,33 µM,,6%
CC(C)(C)c1ccc(-n2nnnc2SCC(=O)Nc2ccc(S(=O)(=O)NCCc3ccccc3)cc2Cl)c(Cl)c1,IC50,,RT-K103 Y181C,,PicoGreen / fluorescence,<1 µM
CCCN1C(=O)c2cc(Cl)nnc2N(CC)c2ccc(C)cc21,inhibition,,,330 µM,,7%
CC(C)NS(=O)(=O)c1ccc(NC(=O)CSc2nnnn2-c2ccc(C(C)(C)C)cc2Cl)c(Cl)c1,IC50,WT,,,PicoGreen / fluorescence,<1 µM
Cc1cc(C)cc(S(=O)(=O)c2c(C(=O)NCCn3cccc3)[nH]c3ccc(Cl)c(F)c23)c1,Ki,,L100I,,RT activity / nucleotide incorporation,0.03 µM
CCN1C(=O)c2ccnnc2N(C2CC2)c2ccc(C)cc21,inhibition,,,33 µM,,18%
O=[N+]([O-])c1ccc2c(c1)CN(c1nn3c(C4CC4)nnc3c3ccccc13)CC2,IC90,KER2008,,,RT activity / fluorescence,14.5 µM
CCN1C(=O)c2ccnnc2N(CC)c2ccc(C)cc21,inhibition,,,33 µM,,45%
COC(=O)C(C)(C)C#Cc1ccc(NC(=O)CSc2nnnn2-c2cc(C(F)(F)F)ccc2Cl)c(Cl)c1,IC50,,RT-K103 Y181C,,PicoGreen / fluorescence,<1 µM
CCN1C(=O)c2ccnnc2Oc2ccc(OC)cc21,inhibition,,,33 µM,ELISA,19%
O=c1cc(Cc2ccccc2)nc(SCCCCO)[nH]1,Ki,,RT-K103N,,,>1000 µM
Cc1cc(C)cc(S(=O)(=O)c2c(C(=O)NCCOc3ccccc3)[nH]c3ccc(Cl)c(F)c23)c1,Ki,,K103N,,RT activity / nucleotide incorporation,0.006 µM
Nc1ncnc2c1ncn2[C@H]1CC[C@@H](COP(=O)(O)OP(=O)(O)OP(=O)(O)O)O1,Ki,,RT-Q151M,,nucleotide incorporation / radiometric,1.3 µM
CC(C)(C#Cc1ccc(NC(=O)CSc2nnnn2-c2ccc(C(C)(C)C)cc2Cl)c(Cl)c1)OCC(=O)N1CCC(C(=O)O)CC1,IC50,,RT-K103 Y181C,,PicoGreen / fluorescence,<1 µM
Oc1ccc2c(c1)CN(c1nn3c(C4CC4)nnc3c3ccccc13)CC2,IC90,KER2008,,,RT activity / fluorescence,2.22 µM
CCN1c2ncc(CCOc3ccc4cc(C(=O)NC(C)(C)C(=O)O)ccc4c3)cc2C(=O)N(C)c2cccnc21,fold resistance,,RT-K103N Y181C,,nucleotide incorporation / radiometric,1–10
O=P(O)(O)OP(=O)(O)O,Ki,WT,,,nucleotide incorporation / radiometric,185 µM

The first 9 rows once more:

compound	endpoint	strain or isolate	mutations	tested at	read by	value
C=Cc1cc(N(CCC)CCC)nc(S(C)(=O)=O)n1	Ki				nucleotide incorporation / radiometric	>400 µM
Cc1ccc(-n2nnnc2SCC(=O)Nc2ccc(-c3ccc(CC(N)=O)cc3)cc2[N+](=O)[O-])c(Cl)c1	IC50	WT			PicoGreen / fluorescence	<1 µM
Cc1c(Cc2ccccc2)nc(NCCCCN)[nH]c1=O	Ki		RT-L100I			>1000 µM
Cc1ccc2c(c1)N(C(C)C)C(=O)c1ccnnc1O2	inhibition			33 µM	ELISA	44%
CCOCn1c(Sc2ccccc2)c(CC)c(=O)[nH]c1=O	fold resistance		RT-Y181C		nucleotide incorporation	14
CC(C)(C#Cc1ccc(NC(=O)CSc2nnnn2-c2cc(C(F)(F)F)cc(C3CC3)c2Cl)c(Cl)c1F)NC(=O)CN1CCNCC1	IC50		RT-K103 Y181C		PicoGreen / fluorescence	<1 µM
Cc1c(Cc2ccccc2)nc(SCCCCO)[nH]c1=O	Ki		RT-L100I			73 µM
CC(C)c1ccc(-n2nnnc2SCC(=O)Nc2ccc(-c3ccc(OCCN4CCCC4)cc3)cc2Cl)c(Br)c1	IC50	WT			PicoGreen / fluorescence	<1 µM
O=C1NC(c2c[nH]c3ccc(O)cc23)=C/C1=C1\C(=O)NC2C=CC=CC12	inhibition			1000 µM	RT activity / ELISA	97.14%